Series [1] deals with GST-NS4B (Hepatitis C virus). Briefly: pull-down. As to conditions: 10 mM Na HEPES pH 7.4, 33 mM NaCl, 10 mM MgCl2, 37 C; purified recombinant protein; protein details: GST fusion, E. coli BL21; label: Cy5 (32P in pull-down and filter assays).
Series [2] has as its system mistic-NS4B (Hepatitis C virus). Briefly: filter binding. As to conditions: 50 mM HEPES pH 7.0, 50 mM NaCl, 1 mM MgCl2, tRNA, 3.3 nM RNA, 30 C; purified recombinant protein; protein details: N-terminal 6xHis-MISTIC fusion, E. coli; label: Cy5 (32P in pull-down and filter assays).

For at least one entry, the source does not settle the construct or the ends of the probe.

“ACUCGAGCGGCCGCCACUGUGCUGGAUAUCGAUCCAUGGCGCGCCCUUUGGUUUUUCUUUGAGGUUUAGGAUUCGUGCUCAUGGUGCACGGUCUACGAGACCUCCCGGGGCACUCGCAAGCACCCUAUCAGGCAGUACCACAAGGCCUUUCGCGACCCAACACUACUCGGCUAGCAGUCUCGCGGGGGCACGCCCAAAUCUCCAGGCAUUGAGCGGGUUGAUCCAAGAAAGGACCCGGUCGUCCUGGCAAUUCCGGUGUACUCACCGGUUCCGCAGACCACUAUGGCUCUCCCGGGAGGGGGGGUCCUGGAGGCUGCACGACACUCAUACUAACGCCAUGGCUAGACGCUUUCUGCGUGAAGACAGUAGUUCCUCACAGGGGAGUGAUCUAUGGUGGAGUGUCGCCCCCAAUCGGGGGCUGGCUAUAGUGAGUCGUAUUAUGAUAUCUGCAGAAUUCCACCACACUGGACUAGUGGAUCCGAGCUCGGUACCAAGCUUAAGUUUAAACGCUAGCCAGCUUGGGUCU [3' negative terminus (HCV negative strand)]”: the binding result in series [1] and in series [2] was “binds” each time.

Values taken from patent US20150044169.
